Results of unrelated studies side by side (data: NIAID ChemDB).

All rows: tests on isolated targets; agent: HIV-1; protein: Reverse transcriptase; read-out: IC50

Conditions beyond the fields shown may differ between rows. Blank or dashed fields: not listed here. ICn is the concentration giving n% inhibition.

CCC1(c2cccc(I)c2)Oc2ccccc2-n2cccc2C1=O ; changes: RT-K103N ; method: nucleotide incorporation / radiometric ; result: >10 µM
O=C(CSc1nnnn1-c1ccccc1Br)Nc1ccccc1Cl ; method: nucleotide incorporation / radiometric ; result: <2 µM
CCN1c2ncc(COc3cccc(OC)c3)cc2C(=O)N(C)c2ccc(Cl)nc21 ; changes: RT-Y181C ; method: nucleotide incorporation / radiometric ; result: <1 µM
CC(C)=CCOc1cc(NC(=S)c2ccoc2C)ccc1Cl ; changes: RT-L100I ; result: 10.2 µM
CCC1(c2cccc(N)c2)Oc2ccccc2-n2cccc2C1=O ; changes: RT-V106A ; method: nucleotide incorporation / radiometric ; result: 1.6 µM
CCN1c2ncc(CCCc3ccccc3)cc2C(=O)N(C)c2cccnc21 ; strain: WT ; method: nucleotide incorporation / radiometric ; result: <1 µM
Cc1cn([C@H]2CC[C@@H](COP(=O)(O)OP(=O)(O)OP(=O)(O)O)O2)c(=O)[nH]c1=O ; changes: RT-I132A ; method: nucleotide incorporation / radiometric ; result: 0.07 µM
CCN1c2ncc(CCO)cc2C(=O)N(C)c2ccc(Cl)nc21 ; strain: WT ; method: nucleotide incorporation / radiometric ; result: <1 µM
COC(=O)c1cccc(NC(=O)CSc2nnnn2-c2c(C)cc(C)cc2C)c1C ; method: nucleotide incorporation / radiometric ; result: <2 µM
CCN1c2ncc(CCc3cnc4ccccc4c3)cc2C(=O)N(C)c2ccc(F)nc21 ; changes: RT-Y181C ; method: nucleotide incorporation / radiometric ; result: <1 µM
c1ccc(C2SCc3nc4ccccc4n32)cc1 ; changes: RT-K103N ; result: >50 µM
CCC1(c2ccc(COc3ccccc3)cc2)Oc2ccccc2-n2cccc2C1=O ; strain: WT ; method: nucleotide incorporation / radiometric ; result: 0.15 µM
Cc1ccccc1NC(=O)CSc1nnnn1-c1cccc2ccccc12 ; method: nucleotide incorporation / radiometric ; result: <2 µM
CCN1c2ncc(COc3cccc(C(=O)OC)c3)cc2C(=O)N(C)c2ccc(Cl)nc21 ; strain: WT ; method: nucleotide incorporation / radiometric ; result: <1 µM
Cc1cc(C)c(-n2nnnc2SCC(=O)Nc2ccccc2[N+](=O)[O-])c(C)c1 ; method: nucleotide incorporation / radiometric ; result: <2 µM
CCN1c2ncc(CO)cc2C(=O)N(C)c2ccc(F)nc21 ; strain: WT ; method: nucleotide incorporation / radiometric ; result: <1 µM
Cc1cc(C)c(-n2nnnc2SCC(=O)Nc2ccc(C)c([N+](=O)[O-])c2)c(C)c1 ; method: nucleotide incorporation / radiometric ; result: <2 µM
CCN1c2ncc(CCc3ccccc3)cc2C(=O)Nc2c(C)cc(Cl)nc21 ; strain: WT ; method: nucleotide incorporation / radiometric ; result: <1 µM
CC(=O)c1ccccc1NC(=O)CSc1nnnn1-c1c(C)cc(C)cc1C ; method: nucleotide incorporation / radiometric ; result: <2 µM
Cc1cc(S(N)(=O)=O)ccc1NC(=O)COc1ccc(Cl)cc1C(=O)c1cc(Cl)cc(C#N)c1 ; changes: RT-K103N ; method: fluorescence ; result: 0.0019 µM
O=C(CSc1nnnn1-c1ccccc1Cl)Nc1ccccc1Cl ; method: nucleotide incorporation / radiometric ; result: <2 µM
CCC1(c2ccc(COc3ccccc3Cl)cc2)Oc2ccccc2-n2cccc2C1=O ; changes: RT-Y181I ; method: nucleotide incorporation / radiometric ; result: >10 µM
COc1ccc2c(c1)N(C(=O)OC(C)C)[C@@H](CSC)C(=S)N2 ; changes: RT-E138K ; method: scintillation proximity / radiometric ; result: 0.22 µM
Cc1cc(C)c(-n2nnnc2OCC(=O)Nc2ccccc2Cl)c(C)c1 ; method: nucleotide incorporation / radiometric ; result: <2 µM

The first 3 rows once more:

| smiles | strain | changes | method | result |
|---|---|---|---|---|
| CCC1(c2cccc(I)c2)Oc2ccccc2-n2cccc2C1=O | - | RT-K103N | nucleotide incorporation / radiometric | >10 µM |
| O=C(CSc1nnnn1-c1ccccc1Br)Nc1ccccc1Cl | - | - | nucleotide incorporation / radiometric | <2 µM |
| CCN1c2ncc(COc3cccc(OC)c3)cc2C(=O)N(C)c2ccc(Cl)nc21 | - | RT-Y181C | nucleotide incorporation / radiometric | <1 µM |